PubChem BioAssay AID1259414, Drosophila RNAi Screening Center, 2018
In all, the deposit lists about 24,000 reagents; shown is a random part of those that have a named target and a result. Over the whole deposit, about 1,210 (5%) were called active. 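Inactive calls also include excluded dsRNAs with several or no targets, genes unexpressed in JW18, and well A1, regardless of score.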 Names joined by + are all predicted targets of the reagent. Reagent sequences are not shown.

Purpose: 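Fly genes that alter Wolbachia amount inside host cells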 (primary screen)
Cells: Drosophila JW18 cells infected with Wolbachia
Reagent: long dsRNA against Drosophila genes, 0.25 µg dsRNA per well of a 384-well plate
Time to read-out: 5 days
Challenge: cells persistently infected with Wolbachia before knock-down; no added drug
Read-out: 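Automated imaging of bacterial rRNA staining divided by host cell count, reported as plate-normalised robust z-score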
Scale: Wolbachia per cell robust z: higher = more Wolbachia per host cell than the plate typical
Call rule: 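Hit when robust z is 1.5 or more, or -1.5 or less, in at least two of three replicates; excludes dsRNAs with several or no targets, genes not expressed in JW18 and well A1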

How did the screen score CG31199 [DRSC15284]?
Wolbachia per cell robust z, rep 1: -0.615; Wolbachia per cell robust z, rep 2: 0.227; Wolbachia per cell robust z, rep 3: -0.218; outcome: inactive

With Myo95E [DRSC15821], what was measured?
Wolbachia per cell robust z, rep 1: -0.409; Wolbachia per cell robust z, rep 2: -0.0171; Wolbachia per cell robust z, rep 3: 1.06; outcome: inactive

With stck [DRSC17070], how do the results read?
Wolbachia per cell robust z, rep 1: -3.27; Wolbachia per cell robust z, rep 2: 1.08; Wolbachia per cell robust z, rep 3: 0.528; outcome: inactive

How did the screen score Smyd5 [DRSC15483]?
Wolbachia per cell robust z, rep 1: 0.489; Wolbachia per cell robust z, rep 2: 0.191; Wolbachia per cell robust z, rep 3: 0.0411; outcome: inactive

What is on record for okr [DRSC00834]?
Wolbachia per cell robust z, rep 1: 0.281; Wolbachia per cell robust z, rep 2: 0.642; Wolbachia per cell robust z, rep 3: 0.0405; outcome: inactive

With okr [DRSC24838], what does the deposit list?
Wolbachia per cell robust z, rep 1: 0.78; Wolbachia per cell robust z, rep 2: 0.995; Wolbachia per cell robust z, rep 3: 0.87; outcome: inactive

What did the screen give for Obp44a [DRSC06838]?
Wolbachia per cell robust z, rep 1: -1.17; Wolbachia per cell robust z, rep 2: -1.95; Wolbachia per cell robust z, rep 3: -0.227; outcome: inactive

Which result is listed for Obp44a [DRSC26785]?
Wolbachia per cell robust z, rep 1: 0.273; Wolbachia per cell robust z, rep 2: -0.678; Wolbachia per cell robust z, rep 3: -0.627; outcome: inactive

What did the screen give for CG13694 [DRSC00363]?
Wolbachia per cell robust z, rep 1: 0.885; Wolbachia per cell robust z, rep 2: -0.73; Wolbachia per cell robust z, rep 3: 1.68; outcome: inactive

How did the screen score mIF2 + CR40068 [DRSC37872]?
Wolbachia per cell robust z, rep 1: 1.38; Wolbachia per cell robust z, rep 2: 0.824; Wolbachia per cell robust z, rep 3: 1.57; outcome: inactive

For ATPsynF + lncRNA:sphinx [DRSC17191], how do the results read?
Wolbachia per cell robust z, rep 1: -0.501; Wolbachia per cell robust z, rep 2: 1.05; Wolbachia per cell robust z, rep 3: 0.784; outcome: inactive

Which result is listed for CG42818 [DRSC01963]?
Wolbachia per cell robust z, rep 1: 0.258; Wolbachia per cell robust z, rep 2: 0.357; Wolbachia per cell robust z, rep 3: 0.929; outcome: inactive

Which result is listed for CG14137 [DRSC10142]?
Wolbachia per cell robust z, rep 1: -0.455; Wolbachia per cell robust z, rep 2: -0.836; Wolbachia per cell robust z, rep 3: 0.933; outcome: inactive

With CG14137 [DRSC25376], how do the results read?
Wolbachia per cell robust z, rep 1: -0.368; Wolbachia per cell robust z, rep 2: -2.33; Wolbachia per cell robust z, rep 3: -0.283; outcome: inactive

For CG12237 [DRSC19449], what was measured?
Wolbachia per cell robust z, rep 1: -3.12; Wolbachia per cell robust z, rep 2: -5.71; Wolbachia per cell robust z, rep 3: -2.85; outcome: active

For CG12237 [DRSC22256], what does the deposit list?
Wolbachia per cell robust z, rep 1: -1.01; Wolbachia per cell robust z, rep 2: -0.795; Wolbachia per cell robust z, rep 3: 1.29; outcome: inactive

What did the screen give for CG12237 [DRSC24647]?
Wolbachia per cell robust z, rep 1: -1.25; Wolbachia per cell robust z, rep 2: -0.316; Wolbachia per cell robust z, rep 3: -1.29; outcome: inactive

For CG7988 [DRSC16358], how do the results read?
Wolbachia per cell robust z, rep 1: -3.93; Wolbachia per cell robust z, rep 2: 0.25; Wolbachia per cell robust z, rep 3: 0.409; outcome: inactive

What is on record for Apl + Arts [DRSC10349]?
Wolbachia per cell robust z, rep 1: 0.443; Wolbachia per cell robust z, rep 2: -0.0747; Wolbachia per cell robust z, rep 3: -0.178; outcome: inactive

With CG5011 [DRSC00674], what does the deposit list?
Wolbachia per cell robust z, rep 1: -5.47; Wolbachia per cell robust z, rep 2: -7.54; Wolbachia per cell robust z, rep 3: 0.193; outcome: inactive

What is on record for anne [DRSC17103]?
Wolbachia per cell robust z, rep 1: 0.643; Wolbachia per cell robust z, rep 2: 0.252; Wolbachia per cell robust z, rep 3: 0.762; outcome: inactive

For anne [DRSC29952], what does the deposit list?
Wolbachia per cell robust z, rep 1: -0.397; Wolbachia per cell robust z, rep 2: -0.104; Wolbachia per cell robust z, rep 3: 0.772; outcome: inactive

Which result is listed for anne [DRSC40853]?
Wolbachia per cell robust z, rep 1: -0.306; Wolbachia per cell robust z, rep 2: -0.464; Wolbachia per cell robust z, rep 3: -0.518; outcome: inactive

What is on record for NHP2 [DRSC11229]?
Wolbachia per cell robust z, rep 1: 0.541; Wolbachia per cell robust z, rep 2: 0.554; Wolbachia per cell robust z, rep 3: 0.651; outcome: inactive

What did the screen give for NHP2 [DRSC24264]?
Wolbachia per cell robust z, rep 1: 0.26; Wolbachia per cell robust z, rep 2: 0.34; Wolbachia per cell robust z, rep 3: -0.16; outcome: inactive

With CG6996 [DRSC10758], what was measured?
Wolbachia per cell robust z, rep 1: -4.23; Wolbachia per cell robust z, rep 2: -0.984; Wolbachia per cell robust z, rep 3: 0.647; outcome: inactive

What did the screen give for tpr [DRSC04468]?
Wolbachia per cell robust z, rep 1: -0.93; Wolbachia per cell robust z, rep 2: 0.436; Wolbachia per cell robust z, rep 3: -0.598; outcome: inactive

What is on record for tpr [DRSC28107]?
Wolbachia per cell robust z, rep 1: 0.732; Wolbachia per cell robust z, rep 2: 0.377; Wolbachia per cell robust z, rep 3: 0.77; outcome: inactive

With snRNA:U1:21D [DRSC37901], what does the deposit list?
Wolbachia per cell robust z, rep 1: 1.54; Wolbachia per cell robust z, rep 2: -0.272; Wolbachia per cell robust z, rep 3: 0.314; outcome: inactive

Which result is listed for ReepB [DRSC07150]?
Wolbachia per cell robust z, rep 1: -1.23; Wolbachia per cell robust z, rep 2: -0.107; Wolbachia per cell robust z, rep 3: 0.109; outcome: inactive

Which result is listed for ReepB [DRSC27133]?
Wolbachia per cell robust z, rep 1: 1.4; Wolbachia per cell robust z, rep 2: -0.217; Wolbachia per cell robust z, rep 3: 1.02; outcome: inactive

As entered above:
Under “Wolbachia per cell robust z, rep 1”, CG14137 [DRSC10142] reads -0.455
For “outcome”, anne [DRSC40853] is entered as inactive
